# According to BindingDB's records for doi:10.1021/bi051886s (Johnson & Johnson Pharmaceutical, 2006):
# Biological target: T1, Dimer of Gag-Pol polyprotein [501-599] (Human immunodeficiency virus 1, UniProt P03367)
# T1 construct: 501-599
# Experiment: Protease Inhibition Assay
# Settings: pH 4.7; 37 °C
smiles,measurement,value
COC(=O)N[C@H](C(=O)N[C@@H](Cc1ccccc1)[C@@H](O)CN(Cc1ccc(-c2ccccn2)cc1)NC(=O)[C@@H](NC(=O)OC)C(C)(C)C)C(C)(C)C [CGP 73547],Ki,480 pM
